From publication PMC7157532

Biological target: T1, MoMsn2 (UniProt G4NBR8)
T1 sequence (looked up): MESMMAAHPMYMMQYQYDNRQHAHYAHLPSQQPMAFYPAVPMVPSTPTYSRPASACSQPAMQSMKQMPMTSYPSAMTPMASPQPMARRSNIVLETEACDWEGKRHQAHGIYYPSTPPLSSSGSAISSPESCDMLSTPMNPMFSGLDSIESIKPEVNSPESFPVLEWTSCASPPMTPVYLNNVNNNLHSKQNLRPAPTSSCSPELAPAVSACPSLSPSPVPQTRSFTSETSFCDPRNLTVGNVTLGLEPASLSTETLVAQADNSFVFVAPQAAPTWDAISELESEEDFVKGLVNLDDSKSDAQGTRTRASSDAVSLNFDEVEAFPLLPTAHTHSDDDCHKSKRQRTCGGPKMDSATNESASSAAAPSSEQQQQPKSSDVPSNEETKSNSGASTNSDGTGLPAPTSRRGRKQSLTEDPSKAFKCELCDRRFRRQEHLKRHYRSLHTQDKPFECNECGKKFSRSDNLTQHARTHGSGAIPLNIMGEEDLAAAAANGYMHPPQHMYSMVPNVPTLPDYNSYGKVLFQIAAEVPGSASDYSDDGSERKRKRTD
Test: EMSA
Settings: recombinant protein, residues 1-548, probe letters rebuilt from the primers and the genome

Sequence	binding result (label: 5' Alex 660)	binding result
GCGTCTGAGCTTGTGGTAAGCAACGGAAATGATCTGGCTGCAGATATAGGAACAAAGGCTTTAGCGGTAGCAATTGTTCAGGGGCCAAGCAAGCCTGGACCTGAGCTAAATCTGCACCAGTGAAGAGCTAATAGCTTCTTGATTCAGGAACTTAGTGTCTCCGTCGCCTAGCTGGTTGAAGATTTATTGATTTTCTACTGGGCCTAGCGTCGGCTGAGCATGAGGCCTACCATGGGCTTGACCATGTTACTCGGATGTGAGCTCGTCTTGGAGGAGCATCTGAGACTTGGCATTGCCTCACTTGCCATGCAGAGCCTTCACGGAAACGTCATTATGCGCCCCGGGCACATACTGTATACTCATGTTGTACTGGAGTCATCTGGCGCAGGGATAGATGCCAACAAGGCGAAATATATCAGGAGGACCCTACAATCCTGTTATGAGAAACGTGCCTGTTCCCTGAGAAGGTAAAAAAGAGGCTCCTCTGCCACCATCAAACAGTACTGGTTTCTGTGACGGTGTACTCATCTTATTCGCTCCCTGCCTATTGATCACACTCATTAAATTCTTATTTCTCAATCCTTCAATCCTCTTTACGAGAATCAATATCGTTCCTTACTTCCAACCCGAGGCAGTGCCGCCATCCGCCCTCCTAGACTAGTACTCCGCGTTCATTTCCACCTTAGGTGCCCCTCGGCAACTCAGGAGCCACTCATTTGCGATATACCATCCAGCTTTCTCTTCTAGCTTCTTCAGCTAAAAGGCTCGGATACTAGAAAAGCCCGTCCCTCTCTCTGCCCTGATTGCTGGAGCTGGACAGACCCAAGCATCTCGGCCATCACTCTCCTTAGCAGCATCGCCGCTTACACTCTCTTTACACACCTTTTCTTCTTCTTTTTTTTCTTTCTCACCAAGCTGAGCTTGCACTTTCCCTTCTTCTTAGCCTCTTCTTTTCACCAATTTCCAACCATAACA (double strand) [Alex 660-labeled MoAA91 promoter 1,000-bp DNA]	binds	
GCGTCTGAGCTTGTGGTAAGCAACGGAAATGATCTGGCTGCAGATATAGGAACAAAGGCTTTAGCGGTAGCAATTGTTCAGGGGCCAAGCAAGCCTGGACCTGAGCTAAATCTGCACCAGTGAAGAGCTAATAGCTTCTTGATTCAGGAACTTAGTGTCTCCGTCGCCTAGCTGGTTGAAGATTTATTGATTTTCTACTGGGCCTAGCGTCGGCTGAGCATGAGGCCTACCATGGGCTTGACCATGTTACTCGGATGTGAGCTCGTCTTGGAGGAGCATCTGAGACTTGGCATTGCCTCACTTGCCATGCAGAGCCTTCACGGAAACGTCATTATGCGCCCCGGGCACATACTGTATACTCATGTTGTACTGGAGTCATCTGGCGCAGGGATAGATGCCAACAAGGCGAAATATATCAGGAGGACCCTACAATCCTGTTATGAGAAACGTGCCTGTTCCCTGAGAAGGTAAAAAAGAGGCTCCTCTGCCACCATCAAACAGTACTGGTTTCTGTGACGGTGTACTCATCTTATTCGCTCCCTGCCTATTGATCACACTCATTAAATTCTTATTTCTCAATCCTTCAATCCTCTTTACGAGAATCAATATCGTTCCTTACTTCCAACCCGAGGCAGTGCCGCCATCCGCCCTCCTAGACTAGTACTCCGCGTTCATTTCCACCTTAGGTGCCCCTCGGCAACTCAGGAGCCACTCATTTGCGATATACCATCCAGCTTTCTCTTCTAGCTTCTTCAGCTAAAAGGCTCGGATACTAGAAAAGCCCGTCCCTCTCTCTGCCCTGATTGCTGGAGCTGGACAGACCCAAGCATCTCGGCCATCACTCTCCTTAGCAGCATCGCCGCTTACACTCTCTTTACACACCTTTTCTTCTTCTTTTTTTTCTTTCTCACCAAGCTGAGCTTGCACTTTCCCTTCTTCTTAGCCTCTTCTTTTCACCAATTTCCAACCATAACA (double strand) [MoAA91 promoter full-length / 1,000-bp DNA]		binds

Protein sequences can lack the tags named with them.
